Results of unrelated studies side by side (data: NIAID ChemDB).

Common to all: tests in culture; organism: HIV-1; method: MTT; read-out: EC50

ECn: concentration that inhibits the pathogen or its effect by n%. Blank or dashed fields: not listed here. Lines come from different laboratories, so protocols vary.

structure | strain or isolate | changes | cells | result
COc1cc(/C=C2/SC(=O)N(CC(=O)Nc3nc4ccc(SC#N)cc4s3)C2=O)cc(OC)c1OC | IIIB |  | MT-4 | >54 µM
Cc1ccc(NC(=S)NC2CCN(Cc3ccccc3)CC2)cc1Cl | IIIB |  | MT-4 | >11.6 µM
Fc1ccccc1NC(=S)Nc1nc2ccccc2s1 | IIIB |  | MT-4 | >27 µM
S=C(Nc1ccccc1Cl)NC1CCN(Cc2ccccc2)CC1 | IIIB |  | MT-4 | >56 µM
Cc1cc(/C=C/C#N)cc(C)c1Oc1nc(NC2CCN(Cc3ccccc3F)CC2)nc2ccsc12 | IIIB | NNRTI-resistant (RT E138K) | MT-4 | 0.0335 µM
Cc1ccc(CN=C2C=C(Cc3ccccc3)NS(=O)(=O)N2)cc1 | IIIB |  | MT-4 | >192 µM
CC(C)(C)C(=O)OCOP(=O)(OCOC(=O)C(C)(C)C)OC[C@@H]1CC[C@H](n2ccc(=O)[nH]c2=O)O1 |  |  | MT-4 | 4.75 µM
N#CSc1ccc2nc(NC(=O)CN3C(=O)S/C(=C/c4ccc(F)cc4)C3=O)sc2c1 | IIIB |  | MT-4 | >100 µM
Cc1cc(/C=C/C#N)cc(C)c1Oc1nc(NC2CCN(Cc3cccc(C(N)=O)c3)CC2)nc2ccsc12 | IIIB | NNRTI-resistant (RT L100I) | MT-4 | 0.00512 µM
CN(C)c1ccc(/C=C2/SC(=O)N(CC(=O)Nc3nc4ccc(SC#N)cc4s3)C2=O)cc1 | IIIB |  | MT-4 | >61 µM
COc1cc(/C=C/c2nc(NC(=O)Nc3ccc(Cl)cc3)c3ccccc3n2)cc(OC)c1OC | IIIB |  | MT-4 | >4.97 µg/mL
Nc1ccc(C2SCC(=O)N2c2ccc(Cl)cc2)cc1 | IIIB |  | MT-2 | ≥154.6 µM
Nc1ccn([C@@H]2CS[C@H](CO)O2)c(=O)n1 | IIIB |  | MT-4 | 5.5 µM
Cc1cc(/C=C/C#N)cc(C)c1Oc1nc(NC2CCN(Cc3ccncc3)CC2)nc2ccsc12 | IIIB | NNRTI-resistant (RT K103N) | MT-4 | 0.00556 µM
S=C(NCc1ccco1)Nc1ccc(Cl)c(Cl)c1 | IIIB |  | MT-4 | >35.7 µM
Cc1cc(C#N)cc(C)c1Oc1nc(NC2CCN(Cc3ccc(S(N)(=O)=O)cc3)CC2C(=O)O)nc2ccsc12 | IIIB | NNRTI-resistant (RT L100I) | MT-4 | 1.64 µM
Cc1cccc(N2C(=O)CSC2c2ccccn2)n1 | IIIB |  | MT-2 | 0.078 µM
Cc1cc(C)c(NC2=NS(=O)(=O)NC(Cc3ccc4ccccc4c3)=C2)c(C)c1 | IIIB |  | MT-4 | >96 µM
Cc1cc(/C=C/C#N)cc(C)c1Oc1nc(NC2CCN(Cc3cccc(Br)c3)CC2)nc2ccsc12 | IIIB | NNRTI-resistant (RT Y188L) | MT-4 | 0.165 µM
CCOC(=O)c1ccc(NC(=O)COc2nsnc2-c2cccc3ccccc23)cc1 | IIIB |  | MT-4 | >85 µM
Fc1ccc(NC(=S)NC2CCN(Cc3ccccc3)CC2)cc1 | IIIB |  | MT-4 | >34 µM
Cc1cccnc1N1C(=O)CSC1c1c(C)cccc1C | IIIB |  | MT-2 | ≥182 µM
COc1ccc(C(=O)/C=C/c2ccc(OC)cc2OC)cc1 | IIIB |  | MT-4 | >400 µM
COc1cc(/C=C/c2nc(NC(=S)Nc3ccc(Cl)cc3)c3ccccc3n2)cc(OC)c1OC | IIIB |  | MT-4 | >1.73 µg/mL
COc1ccc(C2SCC(=O)N2c2ccc(S(N)(=O)=O)cc2)cc1 | IIIB |  | MT-2 | ≥182 µM
COc1cc(/C=C/c2nc(NC(=O)Nc3ccccc3Cl)c3ccccc3n2)cc(OC)c1OC | IIIB |  | MT-4 | >1.69 µg/mL
Fc1cccc(Cn2cc(COc3nsnc3-c3cccc4ccccc34)nn2)c1 | IIIB |  | MT-4 | >67 µM
COc1ccc(NC2=NS(=O)(=O)NC(Cc3ccc4ccccc4c3)=C2)cc1 | IIIB |  | MT-4 | >165 µM
O=C(/C=C/c1ccc(F)cc1)c1ccccc1O | IIIB |  | MT-4 | >400 µM
C=C(C)[C@@]1(OC(=O)c2ccccc2)[C@H](OC(C)=O)[C@@H]2[C@H](OC(C)=O)[C@@]3(C)O[C@@]4([C@@H]3OC(C)=O)[C@@H](OC(C)=O)[C@@H](C)C[C@H]4[C@@]2(O)[C@H](C)[C@@H]1OC(C)=O |  |  | C8166 | 78.8 µg/mL
O=S1(=O)N=C(Nc2ccc(F)c(F)c2)C=C(Cc2ccc3ccccc3c2)N1 | IIIB |  | MT-4 | >156 µM
CN1CC(=O)C(=O)C=C1Cn1cnc([N+](=O)[O-])c1Sc1ccc(Cl)cc1 | IIIB |  |  | 3.65 µM
N#CSc1ccc2nc(NC(=O)CN3C(=O)S/C(=C/c4ccccc4Cl)C3=O)sc2c1 | IIIB |  | MT-4 | >73 µM
CN1CC(=O)C(=O)C=C1Cn1cnc([N+](=O)[O-])c1Nc1cccc(Cl)c1 | IIIB |  | MT-4 | >5.5 µM
S=C(NCc1ccco1)Nc1ccccc1Cl | IIIB |  | MT-4 | ≥100 µM
COc1cc(/C=C2/SC(=O)N(CC(=O)Nc3nc4ccc(SC#N)cc4s3)C2=O)ccc1O | IIIB |  | MT-4 | >100 µM
CC(NC(=S)Nc1nc2ccccc2s1)c1ccccc1 | IIIB | AZT-resistant | MT-4 | 0.8 µM
COc1ccc(/C=C/C(=O)c2ccc(OC)cc2O)cc1 | IIIB |  | MT-4 | >400 µM
CN1CC(=O)C(=O)C=C1Cn1cnc([N+](=O)[O-])c1Sc1ccccc1 | IIIB |  | MT-4 | >23.6 µM
N#CSc1ccc2nc(N)sc2c1 | IIIB |  | MT-4 | >26 µM
Cc1ccc(NC(=O)COc2nsnc2-c2cccc3ccccc23)c([N+](=O)[O-])c1 | IIIB |  | MT-4 | >29 µM
C=C(C)[C@@]12OC3(c4ccccc4)O[C@@H]1[C@@H]1[C@H](O)[C@@](C)(O)[C@@H](OC(C)=O)[C@@]4(O)[C@@H](C[C@H](C)[C@@H]4O)[C@@]1(O3)[C@H](C)[C@@H]2OC(=O)c1ccccc1 |  |  | C8166 | 0.13 µg/mL
N#CSc1ccc2nc(NC(=O)CN3C(=O)S/C(=C/c4ccc(Cl)cc4)C3=O)sc2c1 | IIIB |  | MT-4 | >100 µM
COc1ccccc1NC(=S)Nc1nc(/C=C/c2cc(OC)c(OC)c(OC)c2)nc2ccccc12 | IIIB |  | MT-4 | >3.42 µg/mL
O=C(/C=C/c1ccc(O)cc1)c1ccccc1O | IIIB |  | MT-4 | >400 µM
Cc1cc(/C=C/C#N)cc(C)c1Oc1nc(NC2CCN(Cc3cccc(C#N)c3)CC2)nc2ccsc12 | IIIB | NNRTI-resistant (RT E138K) | MT-4 | 0.0279 µM
Cc1ccc(Nc2c([N+](=O)[O-])ncn2CC2=CC(=O)C(=O)CN2C)cc1 | IIIB |  | MT-4 | >25.4 µM
C=C(C)CNC(=S)Nc1nc2ccccc2s1 | IIIB |  | MT-4 | >100 µM
O=C(COc1nsnc1-c1cccc2ccccc12)Nc1ccccc1Cl | IIIB |  | MT-4 | >126 µM
O=C(/C=C/c1ccccc1)c1ccccc1O | IIIB |  | MT-4 | >400 µM
COc1ccc(/C=C2/SC(=O)N(CC(=O)Nc3nc4ccc(SC#N)cc4s3)C2=O)cc1 | IIIB |  | MT-4 | >100 µM
O=[N+]([O-])c1ccc(NC(=S)Nc2nc3ccccc3s2)cc1 | IIIB |  | MT-4 | >100 µM

For reference, 7 entries again:

structure | strain or isolate | changes | cells | result
CN(C)c1ccc(/C=C2/SC(=O)N(CC(=O)Nc3nc4ccc(SC#N)cc4s3)C2=O)cc1 | IIIB |  | MT-4 | >61 µM
CN1CC(=O)C(=O)C=C1Cn1cnc([N+](=O)[O-])c1Sc1ccccc1 | IIIB |  | MT-4 | >23.6 µM
O=[N+]([O-])c1ccc(NC(=S)Nc2nc3ccccc3s2)cc1 | IIIB |  | MT-4 | >100 µM
CCOC(=O)c1ccc(NC(=O)COc2nsnc2-c2cccc3ccccc23)cc1 | IIIB |  | MT-4 | >85 µM
N#CSc1ccc2nc(NC(=O)CN3C(=O)S/C(=C/c4ccc(Cl)cc4)C3=O)sc2c1 | IIIB |  | MT-4 | >100 µM
CC(NC(=S)Nc1nc2ccccc2s1)c1ccccc1 | IIIB | AZT-resistant | MT-4 | 0.8 µM
C=C(C)[C@@]1(OC(=O)c2ccccc2)[C@H](OC(C)=O)[C@@H]2[C@H](OC(C)=O)[C@@]3(C)O[C@@]4([C@@H]3OC(C)=O)[C@@H](OC(C)=O)[C@@H](C)C[C@H]4[C@@]2(O)[C@H](C)[C@@H]1OC(C)=O |  |  | C8166 | 78.8 µg/mL